Consider one substance from publication PMC9734377 (Communications Biology, 2022).

In this data set the test system is NC(=O)c1ccc[n+]([C@@H]2O[C@H](COP(=O)(O)OP(=O)(O)OC[C@H]3O[C@@H](n4cnc5c(N)ncnc54)[C@H](OP(=O)(O)O)[C@@H]3O)[C@@H](O)[C@H]2O)c1. The data set can be described thus: purified protein. The following applies: 800 µM G6P, 50 mM Tris pH 7.5, 3.3 mM MgCl2, 25 °C, fraction assayed not told, crystals from dimer fraction, crystal ligand given as NADP(H), redox state open.

On to “LdG6PD wt dimer (LdG6PD^Dimer) (Leishmania donovani; C138S)”, for which the Km was found to be 14.6 ± 1.6 µM, the Vmax came to 225 µmol/min/mg, the catalytic constant (kcat) turned out to be 250 s⁻¹ and the kcat/Km was 1.73e+07 M⁻¹ s⁻¹.
